Measured values from several laboratories, pooled; numbers as filed in NIAID ChemDB.

All rows: whole-cell or culture tests; species: Cryptococcus neoformans; read-out: MIC80

A number after MIC or MFC names an inhibition level or a share of isolates.

{"smiles": "OC(CN1CCN(c2ccc(OCc3ccncc3)cc2)CC1)(Cn1cncn1)c1ccc(F)cc1F", "strain": "201309", "value": "1 µg/mL"}
{"smiles": "O=C(/C=C/c1ccc(Cl)cc1)OC1CCN(CC(O)(Cn2cncn2)c2ccc(F)cc2F)CC1", "strain": "BLS108", "method": "broth dilution", "value": "0.498 µM"}
{"smiles": "N/C(=N\\O)c1ccc(OCCCCCOc2ccc(/C(N)=N\\O)cc2)cc1", "strain": "H99", "value": ">100 µg/mL"}
{"smiles": "c1cc2nc(CCCCc3nc4ccc(C5=NCCN5)cc4[nH]3)[nH]c2cc1C1=NCCN1", "strain": "H99", "value": ">100 µg/mL"}
{"smiles": "C[C@@H](c1ncncc1F)[C@](O)(Cn1cncn1)c1ccc(F)cc1F", "strain": "BLS1081", "method": "broth dilution", "value": "0.716 µM"}
{"smiles": "N=C(N)c1ccc(NCCCNc2ccc(C(=N)N)cc2[N+](=O)[O-])c([N+](=O)[O-])c1", "strain": "135.95", "value": "3.12 µg/mL"}
{"smiles": "OC(CN1CCCN(CCCOc2ccccc2)C1)(Cn1cncn1)c1ccc(F)cc1F", "value": "140 µM"}
{"smiles": "C[C@@H](N1CCN(Cc2cn(Cc3ccc(Cl)cc3Cl)c3c(Cl)cccc23)CC1)[C@](O)(Cn1cncn1)c1ccc(F)cc1F", "strain": "ATCC 36556", "method": "resazurin", "value": ">128 µg/mL"}
{"smiles": "CCCCN(Cc1cn(Cc2cccc(Cl)c2)nn1)CC(O)(Cn1cncn1)c1ccc(F)cc1F", "value": "1 µg/mL"}
{"smiles": "COc1ccc2c(c1)CCN1C(NCCCCCCC(C)C)NCCC21", "strain": "NFI3102", "value": "1 µg/mL"}
{"smiles": "CN=[N+]([O-])CC[C@H](N)C(=O)O", "strain": "422", "value": ">200 µg/mL"}
{"smiles": "C[C@@H](n1ncc2cc([N+](=O)[O-])ccc21)[C@](O)(Cn1cncn1)c1ccc(F)cc1F", "strain": "ATCC 24065", "value": "0.063 µg/mL"}
{"smiles": "O=C(/C=C/c1cccc(Cl)c1)OC1CCN(CC(O)(Cn2cncn2)c2ccc(F)cc2F)CC1", "strain": "BLS108", "method": "broth dilution", "value": "0.498 µM"}
{"smiles": "COc1ccc(-c2c3c(N)c4c(nc3nc3c2c(C)nn3-c2ccccc2)CCCCC4)cc1", "strain": "ATCC 32264", "method": "broth dilution / absorbance", "value": ">250 µg/mL"}
{"smiles": "C=C(CCCCCNC1NCCC2c3ccc(OC)cc3CCN12)C(C)C", "strain": "NFI3102", "value": "2 µg/mL"}
{"smiles": "CCCCN(Cc1cn(Cc2ccc(C)cc2)nn1)CC(O)(Cn1cncn1)c1ccc(F)cc1F", "value": "2 µg/mL"}
{"smiles": "N=C(N)c1ccc(OCCCC(O)COc2ccc(C(=N)N)cc2)cc1", "strain": "167.95", "value": "0.39 µg/mL"}
{"smiles": "Cn1nc(Cc2ccc(Cl)cc2)c2ccccc2c1=O", "strain": "Clinical isolate (IM 972751)", "method": "broth dilution", "value": "62.5 µg/mL"}
{"smiles": "CCCCN(Cc1cn(Cc2cccc(C#N)c2)nn1)CC(O)(Cn1cncn1)c1ccc(F)cc1F", "value": "64 µg/mL"}
{"smiles": "CC(C)N=C(N)c1ccc2nc(-c3ccc(CCc4ccc(-c5nc6ccc(C(N)=NC(C)C)cc6[nH]5)cc4)cc3)[nH]c2c1", "strain": "H99", "value": "0.39 µg/mL"}
{"smiles": "CN(CC(=O)Nc1ccccc1[N+](=O)[O-])CC(O)(Cn1cncn1)c1ccc(F)cc1F", "value": "4 µg/mL"}
{"smiles": "O=C(/C=C/c1ccccc1F)OC1CCN(CC(O)(Cn2cncn2)c2ccc(F)cc2F)CC1", "strain": "BLS108", "method": "broth dilution", "value": "0.129 µM"}
{"smiles": "N=C(N)c1ccc2nc(CCCc3nc4ccc(C(=N)N)cc4[nH]3)[nH]c2c1", "strain": "H99", "value": ">100 µg/mL"}
{"smiles": "CCCCN(Cc1cn(Cc2ccc(Cl)cc2Cl)nn1)CC(O)(Cn1cncn1)c1ccc(F)cc1F", "value": ">64 µg/mL"}
{"smiles": "C[C@@H](N1CCN(Cc2cn(Cc3ccc(F)cc3F)c3cc(Cl)ccc23)CC1)[C@](O)(Cn1cncn1)c1ccc(F)cc1F", "strain": "ATCC 36556", "method": "resazurin", "value": ">128 µg/mL"}
{"smiles": "CN(CC(=O)Nc1ccc(F)c(Cl)c1)CC(O)(Cn1cncn1)c1ccc(F)cc1F", "value": "1 µg/mL"}
{"smiles": "Cc1nn([C@H](C)[C@](O)(Cn2cncn2)c2ccc(F)cc2F)c2ccc(Cl)cc12", "strain": "ATCC 24065", "value": "0.25 µg/mL"}
{"smiles": "N/C(=N\\O)c1ccc(OCCCCCOc2ccc(/C(N)=N/O)cc2)cc1", "strain": "H99", "value": ">100 µg/mL"}
{"smiles": "C[C@@H](N1CCN(Cc2cn(Cc3ccc(F)cc3F)c3cc(N=[N+]=[N-])ccc23)CC1)[C@](O)(Cn1cncn1)c1ccc(F)cc1F", "strain": "ATCC 36556", "method": "resazurin", "value": ">128 µg/mL"}
{"smiles": "C=C(CCCCCNC1NCCC2c3ccccc3CCN12)C(C)C", "strain": "NFI3102", "value": "2 µg/mL"}
{"smiles": "CCCCCCCCOc1ccc(NC(=O)C(CC(=O)OC(C)(C)C)NC(=O)[C@]2(O)C[C@@H](O)C(O)[C@H](OC(=O)/C=C/c3ccc(O)c(O)c3)C2)cc1", "strain": "ATCC 32045", "value": "1 µg/mL"}
{"smiles": "C[C@@H](n1cc2cc(F)ccc2n1)[C@](O)(Cn1cncn1)c1ccc(F)cc1F", "strain": "ATCC 24065", "value": "0.063 µg/mL"}
{"smiles": "OC(CN=C1CCN(CCCCOc2ccccc2)CC1)(Cn1cncn1)c1ccc(F)cc1F", "value": ">132 µM"}
{"smiles": "O=C(/C=C/c1ccc(Cl)cc1Cl)OC1CCN(CC(O)(Cn2cncn2)c2ccc(F)cc2F)CC1", "strain": "BLS108", "method": "broth dilution", "value": "0.466 µM"}
{"smiles": "C=CCn1cc(CN2CCN([C@H](C)[C@](O)(Cn3cncn3)c3ccc(F)cc3F)CC2)c2ccc(Cl)cc21", "strain": "ATCC 36556", "method": "resazurin", "value": ">128 µg/mL"}
{"smiles": "COc1ccc(-c2c3c(N)c4c(nc3nc3c2c(C)nn3-c2ccccc2)CCC4)cc1", "strain": "ATCC 32264", "method": "broth dilution / absorbance", "value": "250 µg/mL"}
{"smiles": "Cc1nn([C@H](C)[C@](O)(Cn2cncn2)c2ccc(F)cc2F)c2ccc([N+](=O)[O-])cc12", "strain": "ATCC 24065", "value": "0.25 µg/mL"}
{"smiles": "CN(CC(=O)Nc1ccc(C(C)(C)C)cc1)CC(O)(Cn1cncn1)c1ccc(F)cc1F", "value": "0.0625 µg/mL"}
{"smiles": "N=C(N)c1ccc(OCCCCCOc2ccc(/C(N)=N\\O)cc2)cc1", "strain": "H99", "value": ">100 µg/mL"}
{"smiles": "OC(CN1CCCN(CCCCCOc2ccccc2)C1)(Cn1cncn1)c1ccc(F)cc1F", "value": "32.97 µM"}
{"smiles": "O=C1S/C(=C\\c2ccccc2)C(=O)N1CC(O)(Cn1nccn1)c1ccc(F)cc1F", "strain": "CNCYP51", "value": "36.16 µg/mL"}
{"smiles": "CC(C)=CCCCCCNC1NCCC2c3ccccc3CCN12", "strain": "NFI3102", "value": "1 µg/mL"}
{"smiles": "C[C@@H](N1CCN(Cc2cn(-c3ccc(F)cc3)c3cc(Cl)ccc23)CC1)[C@](O)(Cn1cncn1)c1ccc(F)cc1F", "strain": "ATCC 36556", "method": "resazurin", "value": ">128 µg/mL"}
{"smiles": "CCCCCCCCCCC(=O)OC1CCN(CC(O)(Cn2cncn2)c2ccc(F)cc2F)CC1", "strain": "BLS108", "method": "broth dilution", "value": "0.508 µM"}
{"smiles": "O=C1S/C(=C\\c2ccc(Br)cc2)C(=O)N1CC(O)(Cn1nccn1)c1ccc(F)cc1F", "strain": "CNCYP51", "value": "7.67 µg/mL"}
{"smiles": "CCCCN(Cc1cn(Cc2ccccc2Br)nn1)CC(O)(Cn1cncn1)c1ccc(F)cc1F", "value": "64 µg/mL"}
{"smiles": "N=C(N)c1ccc2nc(-c3cccc(-c4nc5ccc(C(=N)N)cc5[nH]4)n3)[nH]c2c1", "strain": "H99", "value": ">100 µg/mL"}
{"smiles": "CCCCN(Cc1cn(Cc2ccccc2[N+](=O)[O-])nn1)CC(O)(Cn1cncn1)c1ccc(F)cc1F", "value": "64 µg/mL"}
{"smiles": "CC(C)(C)c1ccc(/C=C2\\SC(=O)N(CC(O)(Cn3nccn3)c3ccc(F)cc3F)C2=O)cc1", "strain": "CNCYP51", "value": "8.02 µg/mL"}
{"smiles": "Cc1ccc(-c2c3c(N)c4c(nc3nc3c2c(C)nn3-c2ccccc2)CCCC4)cc1", "strain": "ATCC 32264", "method": "broth dilution / absorbance", "value": "125 µg/mL"}
{"smiles": "CCCCN(Cc1cn(Cc2cccc(Br)c2)nn1)CC(O)(Cn1cncn1)c1ccc(F)cc1F", "value": ">64 µg/mL"}
{"smiles": "Cc1ccc(-c2c3c(N)c4c(nc3nc3c2c(C)nn3-c2ccccc2)CCCCC4)cc1", "strain": "ATCC 32264", "method": "broth dilution / absorbance", "value": "125 µg/mL"}
{"smiles": "CCCCN(Cc1cn(Cc2ccccc2F)nn1)CC(O)(Cn1cncn1)c1ccc(F)cc1F", "value": "8 µg/mL"}
{"smiles": "OC(CN1CCCN(CCCCOc2ccccc2)C1)(Cn1cncn1)c1ccc(F)cc1F", "value": "33.95 µM"}
{"smiles": "Cc1nn(-c2ccccc2)c2nc3nc4c(c(N)c3c(-c3ccc(Cl)cc3)c12)CCCCC4", "strain": "ATCC 32264", "method": "broth dilution / absorbance", "value": "125 µg/mL"}
{"smiles": "CN(CCCOc1ccccc1)CC(O)(Cn1cncn1)c1ccc(F)cc1F", "value": "0.62 µM"}
{"smiles": "O=C(/C=C/c1ccc(F)cc1)OC1CCN(CC(O)(Cn2cncn2)c2ccc(F)cc2F)CC1", "strain": "BLS108", "method": "broth dilution", "value": "0.129 µM"}
{"smiles": "C[C@@H](N1CCN(Cc2cn(Cc3ccc(F)cc3)c3ccccc23)CC1)[C@](O)(Cn1cncn1)c1ccc(F)cc1F", "strain": "ATCC 36556", "method": "resazurin", "value": ">128 µg/mL"}

3 of the rows above, restated:

smiles | strain | method | value
OC(CN1CCCN(CCCCOc2ccccc2)C1)(Cn1cncn1)c1ccc(F)cc1F |  |  | 33.95 µM
N=C(N)c1ccc(NCCCNc2ccc(C(=N)N)cc2[N+](=O)[O-])c([N+](=O)[O-])c1 | 135.95 |  | 3.12 µg/mL
O=C(/C=C/c1ccc(Cl)cc1Cl)OC1CCN(CC(O)(Cn2cncn2)c2ccc(F)cc2F)CC1 | BLS108 | broth dilution | 0.466 µM

Blank or dashed fields: not listed here. Conditions beyond the fields shown may differ between rows.